Measured values reported in paper PMC8550428 (2021).

Target: T1, GST-P58^IPK fusion protein (human (cDNA from HUVEC), UniProt Q13217 32-504)
T1 chain: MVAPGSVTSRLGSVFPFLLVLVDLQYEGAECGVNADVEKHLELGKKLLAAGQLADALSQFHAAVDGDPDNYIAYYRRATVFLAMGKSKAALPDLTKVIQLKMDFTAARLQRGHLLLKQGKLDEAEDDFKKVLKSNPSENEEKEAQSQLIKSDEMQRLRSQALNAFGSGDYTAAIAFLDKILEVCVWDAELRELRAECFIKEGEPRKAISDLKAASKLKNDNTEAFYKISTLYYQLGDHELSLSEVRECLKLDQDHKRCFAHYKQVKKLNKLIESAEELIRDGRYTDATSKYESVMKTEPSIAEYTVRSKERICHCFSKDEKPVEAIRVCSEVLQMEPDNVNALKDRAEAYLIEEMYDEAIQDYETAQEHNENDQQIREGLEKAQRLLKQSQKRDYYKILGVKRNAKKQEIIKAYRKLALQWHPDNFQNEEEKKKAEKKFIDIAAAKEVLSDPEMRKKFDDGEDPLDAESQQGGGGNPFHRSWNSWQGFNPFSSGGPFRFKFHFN
Experiment: BLI

B1: C-terminally His tagged NP (natural protein)
chain: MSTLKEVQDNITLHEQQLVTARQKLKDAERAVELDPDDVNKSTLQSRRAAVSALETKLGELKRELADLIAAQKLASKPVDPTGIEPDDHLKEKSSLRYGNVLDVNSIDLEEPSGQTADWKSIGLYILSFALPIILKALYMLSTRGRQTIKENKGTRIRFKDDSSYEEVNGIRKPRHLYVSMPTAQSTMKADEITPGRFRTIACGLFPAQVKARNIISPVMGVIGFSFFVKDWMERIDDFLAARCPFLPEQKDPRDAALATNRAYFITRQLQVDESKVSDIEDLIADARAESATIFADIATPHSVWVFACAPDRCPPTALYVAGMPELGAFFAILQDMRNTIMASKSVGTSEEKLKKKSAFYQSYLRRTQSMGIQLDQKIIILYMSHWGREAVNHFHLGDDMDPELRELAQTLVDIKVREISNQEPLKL
**Q.** Which koff does the source give for B1 here?
**A.** 0.0119 s⁻¹
